{"source": "patent EP2436774A2", "about": "“Therapeutic monoclonal antibodies that neutralize botulinum neurotoxins” (dated 2012)", "biological_target": "Hall (A1) toxin (Clostridium botulinum (Hall strain)) (UniProt P0DPI1)", "assay": "cell-based or functional assay", "data": [{"substance": "C25 IgG (chimeric, murine V-domains and human C-domains) (from UniProt P01857 1-330) (antibody)", "values": [{"measurement": "Observed Toxin Neutralization (mouse, toxin and 50 ug Ab premixed, i.p.)", "result": "< 20", "unit": "LD50s"}]}]}
